Measured values reported in the supplement of paper PMC9931576.
Human monoclonal antibodies against the spike receptor-binding domain (heavy:light variable regions). IC50 against pseudoviruses bearing the spike of naturally observed variants; lower = stronger; >10 µg/ml means not reached at the top dose. No active / inactive call. The stated detection limit is 0.0005 µg/ml; values near or below 0.001 µg/ml lie at the floor of the assay.

Key:
Assay in all cases: pseudovirus neutralization IC50; higher = weaker neutralization
[1] = target: SARS-CoV-2 Omicron BA.1 spike pseudovirus
Protocol: (§1)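 Single-round VSV luciferase pseudovirus mixed with antibody dilutions for 1 h and put on Huh-7 cells for about a day; IC50 from the dose curve.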

[2] = target: SARS-CoV-2 Omicron BA.2 spike pseudovirus
Protocol: as §1

[3] = target: SARS-CoV-2 Omicron BA.2.75 spike pseudovirus
Protocol: as §1

[4] = target: SARS-CoV-2 Omicron BA.5 spike pseudovirus
Protocol: as §1

[5] = target: SARS-CoV-2 Omicron BQ.1.1 spike pseudovirus
Protocol: as §1

[6] = target: SARS-CoV-2 Omicron XBB spike pseudovirus
Protocol: as §1

[7] = target: SARS-CoV-2 early D614G spike pseudovirus
Protocol: as §1

| Binder | pseudovirus neutralization IC50 [1] | pseudovirus neutralization IC50 [2] | pseudovirus neutralization IC50 [3] | pseudovirus neutralization IC50 [4] | pseudovirus neutralization IC50 [5] | pseudovirus neutralization IC50 [6] | pseudovirus neutralization IC50 [7] |
| --- | --- | --- | --- | --- | --- | --- | --- |
| BD56-1531 (protein) chain 1: QVQLQESGPGLVKPSQTLSLTCTVSGGSISSSAFYWSWIRQSPGKGLEWIGFIFYSGSTYYNPSLRSRITISIDISKNQFSLNVNSVTAADTAVYYCARETRRGYSGYDLGGFDHWGQGALVTVSS chain 2: QSALTQPASVSGSPGQSITISCTGTSSDVGGYNYVSWYQQHPGKAPKLIIDEVRNRPSGVSNRFSGSKSGNTASLTISGLQADDEADYYCSSYTTTSTRVFGGGTKLTVL | > 10 µg/mL | > 10 µg/mL | > 10 µg/mL | > 10 µg/mL | > 10 µg/mL | > 10 µg/mL | > 10 µg/mL |
| BD56-1532 (protein) chain 1: EVQLVQSGAEVKKPGESLKISCKASGYSFISHWIGWVRQMPGKGLEWMGIIYPGDSDTRYSPSFQGQVTISADKSITTAYLQWTRLKASDTAIYYCARLPTVAGWFHPWGQGTLVTVSS chain 2: QSVLTQPPSASRTPGQRVTISCSGSSSNIGGNPVNWYQQLPGTAPKLLIQNNYQRPSGVPDRFSGSKSGTSASLAISGLQSEDEADYYCAAWDDSLNVVLFGGGTKLTVL | 1.02 µg/mL | 1.31 µg/mL | 1.18 µg/mL | 0.984 µg/mL | 1.27 µg/mL | 2.37 µg/mL | 1.23 µg/mL |
| BD56-1533 (protein) chain 1: EVQLVQSGAEVKKPGESLKISCKGLGYTFTRYWIAWVRQMPGRGLEWMGIIYPGDSDSKYSPSFQGQVTFSVDKSISAAYLQWSSLKASDTAIYYCARSGVGEYGDYDYWGQGTLVTVSS chain 2: EIVLTQSPGTLSLSPGERATLSCRASQSVSSSFFAWYQHKPGQAPRLLIYDASNRATGIPDRFTGSGSGTDFTLTITRLEPEDFAVYYCHQYGSSPPTFGQGTKVEIK | 0.513 µg/mL | 0.357 µg/mL | 0.663 µg/mL | 0.562 µg/mL | 0.58 µg/mL | 0.585 µg/mL | > 10 µg/mL |
| COV2-2693 (protein) chain 1: QVQLVQSGAEVKKPGASVKVSCQASGYTFTSYDINWVRQATGQGLEWMGWMKSNSGNTGYAQKFQGRVTMTRNTSISTAYMELTSLRSEDTAVYYCARMRSGWPTHGRPDDLWGRGTLVTVSS chain 2: QSVLTQPPSASGTPGQRVTISCSGSNSNIGSYTVNWYQQLPGTAPKLLIYDNNQRTSGVPDRLSGSKSGTSASLAISGLQSEDEANYYCAVWDDSLNGLVFGGGTKLTVL | > 10 µg/mL | > 10 µg/mL | > 10 µg/mL | > 10 µg/mL | > 10 µg/mL | > 10 µg/mL | 4.28 µg/mL |
| BD56-1535 (protein) chain 1: QVQLVQSGAEVKKPGSSVKVSCKASGGTFSSQAISWVRQAPGQGLEWMGGIIPIFNRTNYAQKFQGRVTITADESTSTAYMQLNSLRSEDTAVYYCATFGTWLDGGRDYWGQGTLVIVSS chain 2: EIVLTQSPGTLSLSPGKQATLSCRASQSVTSDYLAWYQQKPGQAPRLLIYAASSRASGIPDRFSGSGSGTDFTLTISRLEPEDFAVYYCQQYGRSRTFGQGTKVEIK | > 10 µg/mL | > 10 µg/mL | > 10 µg/mL | > 10 µg/mL | > 10 µg/mL | > 10 µg/mL | > 10 µg/mL |
| BD56-1545 (protein) chain 1: QITLKESGPTLVKPTQTLTLTCTFSGFSLSTSGVGVGWIRQPPGEALEWLAIIYWDDDKRYSPSLKSRLTITRDTSKNQVVLTMTKMDPVDTATYYCAHSPTSMITFGGVSAEFHYWGQGTLVTVSS chain 2: SYEVTQPPSVSVSPGQTASITCSGDKLGDKYVCWYQQKSGQSPVLVMHQDSKRPSGIPERFSGSSSGNTATLTISGTQAMDEADYYCQAWDYSTVVFGRGTRLTVL | 3.51 µg/mL | 2.86 µg/mL | 1.98 µg/mL | 1.96 µg/mL | 3.26 µg/mL | 3.76 µg/mL | 2.75 µg/mL |
| BD56-1546 (protein) chain 1: QVQLVESGGGVVQPGRSLRLSCAASAFTFRSFDMHWVRQAPGKGLEWVAAIWYDGSNKYYADSVKGRFTISRDNSKNTLYLQMNSLRVEDTAVYYCATAVVAAGLAEYFQHWGRGTLVTVSS chain 2: DIQMTQSPSSLSASVGDRVIITCRASQGISNFLAWFQQKPGKAPKSLIYAASSLHSGVPSKFSGSESGTDFTLTISSLQPEDFATYYCQQYHSFPYTFGQGTKLEIK | > 10 µg/mL | > 10 µg/mL | > 10 µg/mL | > 10 µg/mL | > 10 µg/mL | > 10 µg/mL | > 10 µg/mL |
| BD56-1548 (protein) chain 1: QLQLQESGPGLVKPSETLSLTCSVSGGPISRTSYYWVWIRQPPGKGLEWIGSIYYSGSTYYNPSLKSRVTISVDTSRNQFSLKLSSVTAADSAVYYCARPGGTWIQPWSDASDIWGQGTMVTVSS chain 2: EIVLTQSPATLSLSPGERATLSCRASQSISTYLAWYQQKPGQAPRLLIYDASNRATGIPARFSGSGSGTDFTLTISSLEPEDFAVYYCQQRDNWPLLTFGGGTKVEIK | > 10 µg/mL | > 10 µg/mL | > 10 µg/mL | > 10 µg/mL | > 10 µg/mL | > 10 µg/mL | > 10 µg/mL |
| BD56-1553 (protein) chain 1: QVQLVESGGGVVQPGRSLRLSCAVSGFTFSHYVMHWVRQAPGKGLEWVAVILYDGSNRYYADSVKGRFTISRDNSKNTLYLQMNSLRVEDTAVYYCAKAQGPYCGGGTCYSSPFDFWGQGTLVTVSS chain 2: DIQMTQSPSSLSASVGDRVTITCQASQDISNYLNWYQQKPGKAPKLLIYGASNLETGVPSRFSGSGSGTDFAFSISSLQPEDIATYYCQKYDNLPPLFGPGTKVDIK | > 10 µg/mL | > 10 µg/mL | > 10 µg/mL | > 10 µg/mL | > 10 µg/mL | > 10 µg/mL | > 10 µg/mL |
| BD56-1559 (protein) chain 1: QLQLQASGPGLVKPSETLSLTCTVSGGSISSSSYYWGWIRQPPGKGLEWIGSFYHSGSIYYNPSLQSRVTISADTSENQFSLKLSSVTAADTAIYYCARQRFGYCSGAACYGDWYFDLWGRGTLVTVSS chain 2: DIQMTQSPSTLSASVGDRVTITCRASQIISSWLAWYQQKPGKAPNLLIYKASSLESGVSSRFSGSGSGTEFTLTISSLQPDDFATYYCQQYNSYPWTFGQGTKVEIK | > 10 µg/mL | > 10 µg/mL | > 10 µg/mL | > 10 µg/mL | > 10 µg/mL | > 10 µg/mL | > 10 µg/mL |
| BD56-1560 (protein) chain 1: EVQLVQSGAEVKKPGESLKISCKASGYSFISHWIAWVRQMPGKGLEWMGVIYPGDSDTRYSPSFQGQVTISADKSITTAYLHWSRLKASDTAIYYCARLPTVASWFDLWGQGTLVIVPS chain 2: QSVLTQPPSASGTPGQRVTISCSGRSSNIGSNPVSWYLQLPETAPKLLIYNNNARPSGVPDRFSGSKSGTSASLAISGLQSEDEADYYCAAWDDSLNVVLFGRGTKLTVL | 1.48 µg/mL | 0.608 µg/mL | 0.858 µg/mL | 0.728 µg/mL | 0.757 µg/mL | 1.65 µg/mL | 1.06 µg/mL |
| BD56-1566 (protein) chain 1: QVQLVQSGAEVKKPGASVTVSCQASGYTFTSYYIHWVRQAPGQGLEWMGIINPDGGSTTYAQKFQGRVTLTSDTSTTTVYMELSSLRSEDTAMYFCARGSGIIPVLRRNFDCWGQGTLVTVSS chain 2: DIVMTQSPDSLAVSLGERATINCKSSQSVSYSSNNKNYLAWYQQKPGQPPKLLIYWASTRESGVPDRFSGSGSGTDFTLTISSLQAEDVAVYYCQQYYNTPFTFGPGTKVDFK | > 10 µg/mL | > 10 µg/mL | > 10 µg/mL | > 10 µg/mL | > 10 µg/mL | > 10 µg/mL | > 10 µg/mL |
